Compound potency records, mixed from different reports. Data source: NIAID ChemDB in PubChem.

Common to all: cytotoxicity tests; cells: HepG2 2.2.15; measure: CC50

CCn: concentration that lowers growth or viability of the cells by n%. Neighbouring rows are from separate reports.

compound | value
OC[C@@H]1[C@@H](O)[C@H](O)[C@@H](O)CN1CCCCC1CCCCC1 | 500 µM
CC1(C)C2CC[C@@]3(C)C4CC[C@@]5(C)CC[C@](C)(C(=O)O)C[C@H]5C4=CC(=O)C3[C@@]2(C)CC[C@@H]1O[C@@H]1O[C@H](C(=O)O)[C@@H](O[C@@H]2O[C@H](C(=O)O)[C@@H](O)[C@H](O)[C@H]2O)[C@H](O)[C@H]1O | >100 µM
CCCCCCCCCN1C[C@H](O)[C@@H](O)[C@H](O)[C@H]1CO | 175 µM
CC12CCC(OC(=O)CCC(=O)O)CC1CCC1C2CCC2(C)C(c3ccc(=O)oc3)CCC12O | >100 µM
COC(=O)[C@H](C)NP(=O)(OC[C@@H]1CC[C@H](n2cnc3c(N)ncnc32)C1)Oc1ccccc1 | 38 µM
C[C@@H]1CCC=C2C(=O)C[C@@H](O)[C@@H](C(C)(C)O)[C@]21C | >100 µM
COCCCCCCCCCN1C[C@H](O)[C@@H](O)[C@H](O)[C@H]1CO | >2000 µM
Nc1ncnc2c1ncn2CCOCP(=O)(O)O | >10 µM
CC(C)(C)CCCCCCCN1C[C@H](O)[C@@H](O)[C@H](O)[C@H]1CO | 600 µM
O=C(O)[C@H]1O[C@@H](Oc2cc3oc(-c4ccccc4)cc(=O)c3c(O)c2O)[C@H](O)[C@@H](O)[C@@H]1O | >100 µM
Nc1ncnc2c1ncn2C[C@@H](CF)OCP(=O)(O)O | >100 µM
Cc1c(-c2cnccn2)ssc1=S | >50 µM
CC1(C)C2CCC(N3C[C@H](O)[C@@H](O)[C@H](O)[C@H]3CO)C1C2 | 800 µM
Nc1ccn([C@@H]2C=C(F)[C@H](CO)O2)c(=O)n1 | >100 µM
COc1ccc2cc3[n+](cc2c1OC)CCc1cc2c(cc1-3)OCO2 | 50 µM
COC(=O)CC(O)(CCCC(C)(C)O)C(=O)O[C@@H]1C(OC)=C[C@]23CCCN2CCc2cc4c(cc2[C@@H]13)OCO4 | 0.5 µM
Nc1nc2c(ncn2CC2(OCP(=O)(O)O)CC2)c(=O)[nH]1 | >1000 µM
O=c1cc(-c2ccccc2)oc2cc(O)c(O)c(O)c12 | >100 µM